A mixed list of measured activities; the numbers were collected in NIAID ChemDB.

Common to all: tests in culture; species: Mycobacterium tuberculosis

MIC bound: limit read from a one-dose screen.

| SMILES | strain or isolate | read by | conditions | endpoint | tested at | value |
|---|---|---|---|---|---|---|
| CCOC(=O)c1cc2c(=O)oc3ccccc3c2oc1=O | H37Rv | BACTEC | - | MIC bound | - | >12.5 µg/mL |
| C=C(C)/C=C/[C@]12C[C@H](C)[C@H]3CC[C@](C)(N)[C@@H](CC[C@H]1C)[C@@H]32 | H37Rv | - | - | inhibition | 8 µg/mL | 99% |
| C[C@H](NC(=O)OCc1ccccc1)c1cnc(-c2ccccc2)[nH]1 | My 331/88 | - | 21 d | MIC | - | 125 µM |
| NC(=O)c1cnccn1 | H37Rv | resazurin | - | MIC | - | 3.12 µg/mL |
| O=C(Cc1ccccc1Nc1c(Cl)cccc1Cl)N/N=C/c1ccccc1O | H37Rv | - | - | MIC | - | 7.53 µM |
| N#CSc1c(-c2ccc(Cl)cc2)nc2sc(S(N)(=O)=O)nn12 | H37Rv | - | - | MIC | - | >6.25 µg/mL |
| CCCCCCCCCCCCCCC[C@H]1CCCC(=O)O1 | H37Rv | - | - | MIC | - | >128 µg/mL |
| COc1ccc2cc1Oc1ccc(cc1)CCCOC(=O)CC2 | H37Rv | resazurin | - | EC50 | - | >100 µg/mL |
| O=C(NCc1ccccc1)c1c(-c2ccccc2)[n+](=O)c2ccc(C(F)(F)F)cc2n1[O-] | H37Rv | resazurin | - | EC90 | - | >100 µg/mL |
| O=C1CC(N2C(=O)c3ccccc3C2=O)C(=O)O1 | H37Rv | BACTEC | - | inhibition | 12.5 µg/mL | 6% |
| O=C(OCc1ccccc1)N1CCC[C@H]1c1cnc(-c2ccccc2)[nH]1 | My 331/88 | - | 14 d | MIC | - | 62.5 µM |
| OC12CCCC(C1)SC(c1ccccc1)=N2 | H37Rv | - | - | EC50 | - | <6.25 µg/mL |
| CN(C)[C@@H]1C(=O)C(C(=O)NCNC(CO)(CO)CO)=C(O)[C@@]2(O)C(=O)C3=C(O)c4c(O)cccc4[C@@](C)(O)[C@H]3C[C@@H]12.Cl | H37Rv | BACTEC | - | inhibition | 12.5 µg/mL | 5% |
| Oc1ccccc1CNCCCNCc1ccccc1O | H37Ra | - | - | MIC | - | >25 µg/mL |
| O=C(O)c1cn(-c2ccc(F)cc2)c2cc(N3CCNCC3)c(F)cc2c1=O | 12 strains | BACTEC | - | EC50 | - | <100 µg/mL |
| Cc1nn(-c2ccccc2)c(Cl)c1-c1nc(N)nc2c1c(C)nn2-c1ccc(S(=O)(=O)O)cc1 | H37Rv | resazurin | - | MIC | - | 3.25 µg/mL |
| N#C/C(=C\c1ccc(Br)cc1)n1nc2ccccc2n1 | - | - | - | EC50 | - | >12.5 µg/mL |
| CC[C@@H](C)[C@H](NC(=O)OCc1ccccc1)c1cnc(-c2ccccc2)[nH]1 | My 331/88 | - | 21 d | MIC | - | 125 µM |
| CC1(O)CCSC(c2ccccc2)=N1 | H37Rv | - | - | EC50 | - | >6.25 µg/mL |
| Oc1ccccc1NC(=S)Nc1ncc(C2CCC2)o1 | MDR clinical isolate | agar | - | MIC | - | 10.81 µM |
| CC1(C)CCC(NC(=O)c2cc3c(C#N)ccnc3[nH]2)CC1 | H37Rv | resazurin | - | MIC90 | - | 0.017 µg/mL |
| Cc1cc(=O)n2[nH]c(Nc3ccc(Cl)cc3)c(C(=O)Nc3ccccc3)c2n1 | H37Rv | resazurin | - | MIC | - | 50 µg/mL |
| Cc1cc(N(CCC#N)CCC#N)ccc1/C=C1\CN(N2C(=O)/C(=C\c3ccc(N(CCC#N)CCC#N)cc3C)N=C2c2ccccc2)C(c2ccccc2)=N1 | H37Rv | BACTEC | - | MIC bound | - | >12.5 µg/mL |
| N#C/C(=C\c1ccccc1)n1nc2ccccc2n1 | - | - | - | EC50 | - | <12.5 µg/mL |
| CCCC1OP(=O)(N2CC(C)N(P3(=O)OCC(CC)C(CCC)O3)CC2C)OCC1CC | H37Rv | BACTEC | - | MIC bound | - | >12.5 µg/mL |
| Cc1cccc(NC(=S)Nc2ncc(C3CCC3)o2)n1 | H37Rv | agar | - | MIC | - | 1.35 µM |
| c1ccc(N=C2SC3=Nc4cccc5cccc(c45)N3C2=Nc2ccccc2)cc1 | H37Rv | BACTEC | - | MIC bound | - | >12.5 µg/mL |
| CN[C@@H]1[C@H](O[C@H]2[C@H](O[C@H]3[C@H](O)[C@@H](O)[C@H](N=C(N)N)[C@@H](O)[C@@H]3N=C(N)N)O[C@@H](C)[C@]2(O)C=O)O[C@@H](CO)[C@H](O)[C@H]1O | ATCC 27294 | resazurin | - | EC50 | - | 6.25 µg/mL |
| CC(=O)Oc1ccc(-c2coc3c4c(c(CC=C(C)C)c(OC(C)=O)c3c2=O)OC(C)(C)C=C4)cc1OC(C)=O | H37Rv | BACTEC | - | inhibition | 12.5 µg/mL | 17% |
| N#C/C(=C\c1ccc(C(=O)O)cc1)n1nnc2ccccc21 | - | - | - | inhibition | 12.5 µg/mL | 0% |
| NNC(=O)c1ccncc1 | H37Rv | - | - | MIC | - | 0.12 µg/mL |
| COc1cc(CNC2CC2)ccc1O | H37Ra | - | - | MIC | - | >25 µg/mL |
| CO/N=C(\C(=O)N[C@@H]1C(=O)N2C(C(=O)O)=C(COC(C)=O)CS[C@H]12)c1csc(N)n1 | 12 strains | BACTEC | - | EC50 | - | <100 µg/mL |
| CC1SC(c2ccccc2)=NC(C)(O)C1C | H37Rv | - | - | inhibition | 6.25 µg/mL | 0% |
| Cc1c(C(=O)NCc2ccc(Cl)cc2)[n+](=O)c2cc(Cl)ccc2n1[O-] | H37Rv | resazurin | - | EC90 | - | 26.98 µg/mL |
| N#C/C(=C/c1ccc(Cl)cc1)n1nc2ccccc2n1 | - | - | - | EC50 | - | >12.5 µg/mL |
| CCCCCCCCC[C@@H]1CC=CC(=O)O1 | H37Rv | fluorescence | - | inhibition | 128 µg/mL | 76.8% |
| C[C@H]1COc2c(N3CCN(C)CC3)c(F)cc3c(=O)c(C(=O)O)cn1c23 | 4S | - | - | MIC | - | 0.5 µg/mL |
| CC(C)COC(=O)N1N=NC2C3CC(=O)C(O3)C21 | H37Rv | BACTEC | - | inhibition | 12.5 µg/mL | 8% |
| CCCCCCCCCCCCCCC[C@H](O)CCCC[C@H](O)C[C@H]1CC=CC(=O)O1 | H37Rv | - | - | MIC | - | 17.31 µg/mL |
| Oc1ccccc1CNCCCCCNCc1ccccc1O | Sensitive strains | - | - | MIC | - | 25 µg/mL |
| C=C(C)C(=O)O[C@H]1C[C@@]23O[C@@H]2CC/C(=C/[C@H]2OC(=O)C(=C)[C@H]12)CO[C@@H]3O | H37Rv | BACTEC | - | inhibition | 12.8 µg/mL | 2% |
| S=C(Nc1cc(Cl)ccn1)Nc1ncc(C2CCC2)o1 | MDR clinical isolate | agar | - | MIC | - | 0.64 µM |
| CO/N=C(/C(=O)N[C@@H]1C(=O)N2C(C(=O)[O-])=C(C[n+]3cccc4c3CCC4)CS[C@H]12)c1csc(N)n1 | 8 strains | BACTEC | - | EC50 | - | <100 µg/mL |
| O=[N+]([O-])c1ccc(-c2cn3nc(C(F)(F)F)sc3n2)cc1 | H37Rv | - | - | MIC | - | >6.25 µg/mL |
| N#C/C(=C\c1ccc(C(F)(F)F)cc1)n1nc2ccccc2n1 | - | - | - | inhibition | 12.5 µg/mL | 17% |
| Cc1ccc(NC(=S)Nc2ncc(C3CCC3)o2)cc1 | MDR clinical isolate | agar | - | MIC | - | 6.12 µM |
| O=C(N[C@@H](Cc1ccccc1)c1cnc(-c2ccc([N+](=O)[O-])cc2)[nH]1)OCc1ccccc1 | My 331/88 | - | 21 d | MIC | - | 16 µM |
| O=C(C[C@@H](O)CCc1ccc(O)c(O)c1)O[C@H]1Cc2c(O)cc(O)cc2O[C@@H]1c1ccc(O)c(O)c1 | H37Rv | BACTEC | - | inhibition | 12.5 µg/mL | 13% |
| CN[C@@H]1[C@H](O[C@H]2[C@H](O[C@H]3[C@H](O)[C@@H](O)[C@H](N=C(N)N)[C@@H](O)[C@@H]3N=C(N)N)O[C@@H](C)[C@]2(O)C=O)O[C@@H](CO)[C@H](O)[C@H]1O | H37Rv | resazurin | - | MIC | - | 6.25 µg/mL |
| O=C(/C=C/c1ccco1)NC(=O)NC(=O)N1CCCCC1 | H37Rv | BACTEC | - | inhibition | 12.5 µg/mL | 0% |
| CCCCCCCCNC(CC(=O)OCC)c1ccc(F)cc1 | H37Ra | - | - | MIC | - | >25 µg/mL |
| CCN=C1Nc2ccccc2-n2c(nn3nc4ccccc4c23)N1CC | H37Rv | BACTEC | - | inhibition | 12.5 µg/mL | 50% |
| COc1cc(-c2cn3nc(S(N)(=O)=O)sc3n2)cc(OC)c1OC | H37Rv | - | - | inhibition | 6.25 µg/mL | 5% |
| Cc1ncc([N+](=O)[O-])n1CCOC(N)=O | H37Rv | resazurin | - | inhibition | 6.25 µg/mL | 15% |
| CCCCCCCCCCCCCC[C@H](O)C[C@H](O)C[C@H](O)C[C@H]1CC=CC(=O)O1 | H37Rv | - | - | MIC | - | 29.4 µg/mL |
| CCN(CC)S(=O)(=O)Nc1c(C)n(C)n(-c2ccccc2)c1=O | H37Rv | BACTEC | - | inhibition | 12.8 µg/mL | 25% |
| CCCCCCCCC=CCCCCCCCCNCc1ccc(Cl)cc1 | H37Ra | - | - | MIC | - | >25 µg/mL |
| CC(=O)ONc1nc(C)c(CCC2OCCO2)c(=O)[nH]1 | H37Rv | resazurin | - | MIC bound | - | >6.25 µg/mL |
| N#C/C(=C\c1ccc(N)cc1)n1nc2ccccc2n1 | - | - | - | EC50 | - | >12.5 µg/mL |
| CCCCCCCCC=CCCCCCCCCNCc1ccccc1O | Clinical isolates MDR | - | - | MIC | - | 3.12 µg/mL |
| CCCCCCCCCCCCCCC[C@H]1CC=CC(=O)O1 | H37Rv | fluorescence | - | inhibition | 128 µg/mL | 63.7% |
| O=C(Cc1ccccc1Nc1c(Cl)cccc1Cl)N/N=C/c1ccccc1[N+](=O)[O-] | H37Rv | - | - | MIC | - | 1.76 µM |
| NCc1ccccc1CC(=O)N[C@@H]1C(=O)N2C(C(=O)O)=C(CSc3nnnn3CC(=O)O)CS[C@H]12 | 8 strains | BACTEC | - | EC50 | - | <100 µg/mL |
| FC(F)(F)c1nn2cc(-c3ccc(Br)cc3)nc2s1 | H37Rv | - | - | MIC | - | 50 µg/mL |
| COC(=O)C1=CO[C@@H](C)[C@@H]2CN3CCc4c([nH]c5cc(OC)c(OC)cc45)[C@H]3C[C@H]12.O=C(O)C(=O)O | H37Rv | BACTEC | - | MIC bound | - | >12.8 µg/mL |
| COc1ccc2c(c1)[n+](=O)c(C(=O)NCc1ccc(C(F)(F)F)cc1)c(C)n2[O-] | H37Rv | resazurin | - | EC90 | - | >100 µg/mL |
| C/C=C(/C)C(=O)OC1CC(C)(C)CC2C3=CCC4C5(C)CC[C@H](OC(C)=O)C(C)(C)C5CC[C@@]4(C)[C@]3(C)CC[C@@]12C(=O)O | H37Rv | - | - | MIC | - | 50 µg/mL |
| NC(=O)c1c[n+]([O-])ccn1 | H37Rv | BACTEC | - | inhibition | 12.5 µg/mL | 0% |
| CCCCCCCCCCCCCCC[C@H](O)CCCCCC[C@H]1CC=CC(=O)O1 | H37Rv | fluorescence | - | inhibition | 128 µg/mL | 48.1% |
| COc1c(N2CCN(C(=O)Cc3ccccc3Nc3c(Cl)cccc3Cl)C(C)C2)c(F)cc2c(=O)c(C(=O)O)cn(C3CC3)c12 | H37Rv | - | - | MIC | - | 0.04 µM |
| N#C/C(=C\c1ccc(N)cc1)n1nnc2ccccc21 | - | - | - | EC50 | - | >12.5 µg/mL |
| COc1cccc2c1C(=O)c1c(O)c3c(c(O)c1C2=O)C[C@@](O)(/C(C)=N/NC(=O)c1ccc(Cl)cc1)C[C@H]3O[C@H]1C[C@H](N)[C@H](O)[C@H](C)O1 | KM-R | - | - | MIC | - | 12.5 µg/mL |
| CCCCCCCCNC(CC(=O)OCC)c1cccc(Cl)c1 | H37Ra | - | - | MIC | - | >25 µg/mL |
| CO/N=C(\C(=O)N[C@@H]1C(=O)N2C(C(=O)O)=CCS[C@H]12)c1csc(N)n1 | 8 strains | BACTEC | - | inhibition | 100 µg/mL | 100% |
| S=C(Nc1cc(Br)cc(Br)n1)Nc1ncc(C2CCC2)o1 | H37Rv | agar | - | MIC | - | 0.23 µM |
| CC(C)C[C@H](NC(=O)OCc1ccccc1)c1cnc(-c2ccccc2)[nH]1 | My 331/88 | - | 14 d | MIC | - | 125 µM |
| Cc1cc(=O)n2[nH]c(Nc3cccc(C)c3C)c(C(=O)Nc3cccc(Cl)c3)c2n1 | H37Rv | resazurin | - | MIC | - | 50 µg/mL |
| COc1cc(/C=N/NC(=O)Cc2ccccc2Nc2c(Cl)cccc2Cl)ccc1O | H37Rv | - | - | MIC | - | 7.02 µM |
| S=C(Nc1ccccn1)Nc1ncc(C2CCC2)o1 | H37Rv | agar | - | MIC | - | 6.42 µM |
| CC(O)CN1CCN(CC(C)O)C(C)C1 | H37Rv | BACTEC | - | MIC bound | - | >12.8 µg/mL |
| CC(C)C1CC(C)(O)N=C(c2ccccc2)S1 | H37Rv | - | - | EC50 | - | >6.25 µg/mL |
| Cc1nn(-c2ccccc2)c(Cl)c1-c1nc(N)nc2c1c(C)nn2-c1ccccc1 | H37Rv | resazurin | - | MIC | - | 3.25 µg/mL |
| CO[C@H]1/C=C/O[C@@]2(C)Oc3c(C)c(O)c4c(O)c(c5c(c4c3C2=O)NC2(CCN(CC(C)C)CC2)N=5)=NC(=O)/C(C)=C\C=C\[C@H](C)[C@H](O)[C@@H](C)[C@@H](O)[C@@H](C)[C@H](OC(C)=O)[C@@H]1C | 2356-5 (RIF-R) | - | - | MIC | - | 1 µg/mL |
| CC(=O)NC[C@H]1CN(c2ccc(N3CCOCC3)c(F)c2)C(=O)O1 | 2S | - | - | MIC | - | 0.5 µg/mL |
| O=C1C2CCCCC2C(=O)N1C1COC2C1OCC2N1C(=O)C2CCCCC2C1=O | H37Rv | BACTEC | - | MIC bound | - | >12.5 µg/mL |
| CCCCCCCCCCCCCCCCNCc1ccc(O)c(OC)c1 | Sensitive strains | - | - | MIC | - | 3.12 µg/mL |

Blank or dashed fields: not listed here. Neighbouring rows are from separate reports. MIC50, MIC90 and the like: level of inhibition, or share of isolates inhibited. ECn is the concentration giving n% inhibition of infection, replication or growth. Percent inhibition refers to the dose given; in toxicity tests it is the harm to the cells.